Compound potency records, mixed from different reports. Data source: NIAID ChemDB in PubChem.

Shared fields: growth or infection tests; agent: HIV-1; endpoint: EC50

ECn: concentration that inhibits the pathogen or its effect by n%. Conditions beyond the fields shown may differ between rows. An empty or dashed field is not shown.

structure	strain or isolate	changes	cell line	method	result
CC(C)=CCc1c(O[C@@H]2O[C@H](CO)[C@@H](O)[C@H](O)[C@H]2O)cc2c(c1O)C(=O)[C@H](O)[C@@H](c1ccc(O)c(O)c1)O2	MC99 deltaTAT/REV	-	1A2	syncytia	44.2 µg/mL
CC(C)C1=C2[C@H]3CC[C@@H]4[C@@]5(C)CC[C@H](OC(=O)[C@H]6C[C@@H](C(=O)O)C6(C)C)C(C)(C)[C@@H]5CC[C@@]4(C)[C@]3(C)CC[C@@]2([C@@H](O)CNCC2CCNCC2)CC1=O	92HT599	-	MT-2	p24 / ELISA	<1 µM
C[C@H](CCC(=O)NCCCCN(CCCNC(=O)CC[C@@H](C)[C@H]1CC[C@H]2[C@@H]3[C@H](OS(=O)(=O)O)C[C@@H]4C[C@H](OS(=O)(=O)O)CC[C@]4(C)[C@H]3C[C@H](OS(=O)(=O)O)[C@]12C)C(=O)CC[C@@H](C)[C@H]1CC[C@H]2[C@@H]3[C@H](OS(=O)(=O)O)C[C@@H]4C[C@H](OS(=O)(=O)O)CC[C@]4(C)[C@H]3C[C@H](OS(=O)(=O)O)[C@]12C)[C@H]1CC[C@H]2[C@@H]3[C@H](OS(=O)(=O)O)C[C@@H]4C[C@H](OS(=O)(=O)O)CC[C@]4(C)[C@H]3C[C@H](OS(=O)(=O)O)[C@]12C	Pseudotyped recombinant replication-defective	-	U87-CD4-CCR5 + U87	luciferase	<100 µg/mL
CC(C)(O)CCc1c(O[C@@H]2O[C@H](CO)[C@@H](O)[C@H](O)[C@H]2O)cc2oc(-c3ccc(O)c(O)c3)c(O)c(=O)c2c1O	MC99 deltaTAT/REV	-	1A2	syncytia	45.8 µg/mL
C=C(C)[C@@H]1CC[C@]2(C(=O)NCCCCCCCC(=O)N[C@@H](CC(C)C)[C@@H](O)CC(=O)O)CC[C@]3(C)[C@H](CC[C@@H]4[C@@]5(C)CC[C@H](O)C(C)(C)[C@@H]5CC[C@]43C)[C@@H]12	LAI	-	HeLa P4 + HeLa	β-galactosidase	~1 µM
COC(=O)[C@H](C)NP(=O)(OC[C@@H]1C=C[C@H](n2cc(C)c(=O)[nH]c2=O)O1)Oc1ccccc1	IIIB	-	CEM + CEM/0	-	0.085 µM
CC(C)C1=C2[C@H]3CC[C@@H]4[C@@]5(C)CC[C@H](OC(=O)[C@H]6C[C@@H](C(=O)O)C6(C)C)C(C)(C)[C@@H]5CC[C@@]4(C)[C@]3(C)CC[C@@]2(CCNCc2ccc(OCCN3CCOCC3)cc2)CC1=O	92HT599	-	MT-2	p24 / ELISA	<1 µM
CC(C)C[C@@H](C=O)NC(=O)[C@H](CC(C)C)NC(=O)[C@H](CC(C)C)NC(=O)OCc1ccccc1	NL4-3	-	A3.01	p24	<40 µM
Cc1cn([C@H]2C=C[C@@H](CO)O2)c(=O)nc1N	LAV	-	CEM-F + CEM	p24 / ELISA	1.8 µg/mL
N#Cc1c(-c2ccco2)nc(SCC(=O)Nc2nc(-c3ccccc3)cs2)[nH]c1=O	BaL	-	MDM	-	4.7 µM
Cc1ccc(CNC[C@H](O)[C@@]23CC[C@]4(C)[C@H](CC[C@@H]5[C@@]6(C)CC[C@H](OC(=O)[C@H]7C[C@@H](C(=O)O)C7(C)C)C(C)(C)[C@@H]6CC[C@]54C)C2=C(C(C)C)C(=O)C3)cc1	92HT599	-	MT-2	p24 / ELISA	<1 µM
O=c1ccn([C@@H]2C[C@@H](F)[C@H](CO)O2)c(=O)[nH]1	LAV	-	PBM	RT activity	>100 µM
CC(C)C1=C2[C@H]3CC[C@@H]4[C@@]5(C)CC[C@H](OC(=O)[C@H]6C[C@@H](C(=O)O)C6(C)C)C(C)(C)[C@@H]5CC[C@@]4(C)[C@]3(C)CC[C@@]2(CCNC(=O)c2ncccn2)CC1=O	92HT599	-	MT-2	p24 / ELISA	<1 µM
CC(C)(C)C(=O)SCCOP(=O)(OCCSC(=O)C(C)(C)C)OC[C@H]1O[C@@H](n2ccc(N)nc2=O)CS1	RF	-	MOLT-4/8 + MOLT-4	MTT / p24	0.008 µM
CC(C)C1=C2[C@H]3CC[C@@H]4[C@@]5(C)CC[C@H](OC(=O)[C@H]6C[C@@H](C(=O)O)C6(C)C)C(C)(C)[C@@H]5CC[C@@]4(C)[C@]3(C)CC[C@@]2(CCNCC(C)(CN)NC(=O)c2ccc(Cl)cc2)CC1=O	92HT599	-	MT-2	p24 / ELISA	<1 µM
COc1ccnc2[nH]cc(C(=O)C(=O)N3C4CC3CN(C(=O)c3ccccc3)C4)c12	6535	-	TZM-bl	luciferase	70 µM
O=c1[nH]cnc2c1ncn2[C@@H]1C[C@@H](F)[C@H](CO)O1	LAV	-	PBM	RT activity	>100 µM
CC(C)C1=C2[C@H]3CC[C@@H]4[C@@]5(C)CC[C@H](OC(=O)[C@H]6C[C@@H](C(=O)O)C6(C)C)C(C)(C)[C@@H]5CC[C@@]4(C)[C@]3(C)CC[C@@]2([C@@H](O)CNC(=O)C(C)(C)NC(=O)c2ccc(C(F)(F)F)cc2)CC1=O	92HT599	-	MT-2	p24 / ELISA	<1 µM
C=C1CN(S(=O)(=O)c2ccc(C)cc2)CCCN(CC2CC=CCC2)CCCN(S(=O)(=O)c2ccc(C)cc2)C1	BaL	-	Monocytes/macrophages	p24	0.29 µM
CC(C)C1=C2[C@H]3CC[C@@H]4[C@@]5(C)CC[C@H](OC(=O)[C@H]6C[C@@H](C(=O)O)C6(C)C)C(C)(C)[C@@H]5CC[C@@]4(C)[C@]3(C)CC[C@@]2(CC(=O)N[C@@H](C)CNC(=O)c2ccc(Cl)cc2)CC1=O	92HT599	-	MT-2	p24 / ELISA	<1 µM
CC(C)=CCc1c(O[C@@H]2O[C@H](CO)[C@@H](O)[C@H](O)[C@H]2O)cc2oc(-c3ccc(O)c(O)c3)c(O)c(=O)c2c1O	MC99 deltaTAT/REV	-	1A2	syncytia	14 µg/mL
Cc1cn([C@H]2C=C[C@@H](COC(=O)c3ccccc3)O2)c(=O)[nH]c1=S	LAV	-	CEM-F + CEM	p24 / ELISA	0.5 µg/mL
C/C(=C(/CCO)SS/C(CCO)=C(\C)N(C=O)Cc1cnc(C)nc1N)N(C=O)Cc1cnc(C)nc1N	IIIB	-	MOLT-4/IIIB + MOLT-4	-	<125 µM
Cc1ccc(-n2sc3ccccc3c2=O)cc1	BaL	-	MDM	-	4 µM
O=C(CNC(=O)COc1ccccc1)NCc1ccc(C(=O)N2CCCCC2)cc1	CMU08	-	PBMC	RT activity	17.7 µM
[N-]=[N+]=N[C@H]1C[C@H](n2cc(Br)cnc2=O)O[C@@H]1CO	-	-	CEM-V + CEM	-	>94 µM
CC(C)C1=C2[C@H]3CC[C@@H]4[C@@]5(C)CC[C@H](OC(=O)[C@H]6C[C@@H](C(=O)O)C6(C)C)C(C)(C)[C@@H]5CC[C@@]4(C)[C@]3(C)CC[C@@]2([C@@H](O)CNC(=O)C(C)(C)NC(=O)c2ccc(Cl)cc2O[C@@H]2CCOC2)CC1=O	92HT599	-	MT-2	p24 / ELISA	<1 µM
CC(=O)OC[C@@H]1C=C[C@H](n2cc(C)c(=O)[nH]c2=O)O1	LAV	-	CEM-F + CEM	p24 / ELISA	3.2 µg/mL
O=c1[nH]c(=O)n([C@@H]2C[C@@H](F)[C@H](CO)O2)cc1Cl	LAV	-	PBM	RT activity	>100 µM
COc1ccnc2[nH]cc(C(=O)C(=O)N3C4CCC3CN(C(=O)c3ccccc3)C4)c12	6535	-	TZM-bl	luciferase	0.02 µM
COc1cnc(-n2cnc(C)n2)c2c1c(C(=O)C(=O)N1CCN(C(=O)c3ccccc3)CC1)cn2COP(=O)(O)O	NL4-3	M426R	U-87	luciferase	0.0011 µM
CC(C)C1=C2[C@H]3CC[C@@H]4[C@@]5(C)CC[C@H](OC(=O)[C@H]6C[C@@H](C(=O)O)C6(C)C)C(C)(C)[C@@H]5CC[C@@]4(C)[C@]3(C)CC[C@@]2([C@@H](O)CNC(=O)C(C)(C)NC(=O)CN2CCS(=O)(=O)CC2)CC1=O	92HT599	-	MT-2	p24 / ELISA	<1 µM
Nc1ncnc2c1ccn2[C@H]1C=C[C@@H](CO)C1	LAI	-	CEMx174 + CEM	RT activity	2.5 µM
Cc1cn([C@H]2C=C[C@@H](CO)O2)c(=O)[nH]c1=O	LAV	-	CEM-F + CEM	p24 / ELISA	0.1 µg/mL

A second listing of 5 rows from above:

{"structure": "CC(C)C1=C2[C@H]3CC[C@@H]4[C@@]5(C)CC[C@H](OC(=O)[C@H]6C[C@@H](C(=O)O)C6(C)C)C(C)(C)[C@@H]5CC[C@@]4(C)[C@]3(C)CC[C@@]2([C@@H](O)CNC(=O)C(C)(C)NC(=O)c2ccc(C(F)(F)F)cc2)CC1=O", "strain or isolate": "92HT599", "cell line": "MT-2", "method": "p24 / ELISA", "result": "<1 µM"}
{"structure": "CC(C)C1=C2[C@H]3CC[C@@H]4[C@@]5(C)CC[C@H](OC(=O)[C@H]6C[C@@H](C(=O)O)C6(C)C)C(C)(C)[C@@H]5CC[C@@]4(C)[C@]3(C)CC[C@@]2(CCNC(=O)c2ncccn2)CC1=O", "strain or isolate": "92HT599", "cell line": "MT-2", "method": "p24 / ELISA", "result": "<1 µM"}
{"structure": "Cc1ccc(-n2sc3ccccc3c2=O)cc1", "strain or isolate": "BaL", "cell line": "MDM", "result": "4 µM"}
{"structure": "O=C(CNC(=O)COc1ccccc1)NCc1ccc(C(=O)N2CCCCC2)cc1", "strain or isolate": "CMU08", "cell line": "PBMC", "method": "RT activity", "result": "17.7 µM"}
{"structure": "CC(C)C1=C2[C@H]3CC[C@@H]4[C@@]5(C)CC[C@H](OC(=O)[C@H]6C[C@@H](C(=O)O)C6(C)C)C(C)(C)[C@@H]5CC[C@@]4(C)[C@]3(C)CC[C@@]2(CCNCC(C)(CN)NC(=O)c2ccc(Cl)cc2)CC1=O", "strain or isolate": "92HT599", "cell line": "MT-2", "method": "p24 / ELISA", "result": "<1 µM"}